Measured values from several laboratories, pooled; numbers as filed in NIAID ChemDB.

Shared fields: growth or infection tests; organism: Herpes simplex virus 1; read by: plaque count; read-out: EC50

ECn: concentration that inhibits the pathogen or its effect by n%. Lines come from different laboratories, so protocols vary. Blank or dashed fields: not listed here.

smiles | strain or isolate | cell line | value
Nc1ccn(C[C@@H](CO)OCP(=O)(O)O)c(=O)n1 | E-377 | HFF | 1.1 µg/mL
Nc1nc2c(ncn2C/C=C\CO)c(=O)[nH]1 | C42 | HEL | 1.6 µM
Nc1nc2c(ncn2COC(CO)CO)c(=O)[nH]1 | ICI | BHK-21 | 0.06 µM
Cc1cn([C@@H]2O[C@H](CO)[C@@H](O)[C@@H]2F)c(=O)[nH]c1=O | V3 | VERO | 0.85 µM
Cc1nc(N(C)C(=O)Cc2ccc(-c3ccccn3)cc2)sc1S(N)(=O)=O | KOS | VERO | 0.04 µM
Nc1nc(-c2ccc(NC(=O)CN(Cc3ccncc3)C(=O)C3CCCCC3)cc2)cs1 | - | BHK-21/C13 | 0.014 µM
Cn1cc(C(=O)NCc2ccc(Cl)cc2)c(=O)c2cc(/C=C\CO)cc(F)c21 | - | VERO | 2 µM
Nc1nc2c(ncn2CCCC(CO)CO)c(=O)[nH]1 | C42 | BHK | 3.2 µM
O=c1[nH]c(=O)n([C@H]2C[C@H](O)[C@@H](CO)O2)cc1I | KOS-M1 | VERO | 0.8 µM
COCc1cn([C@H]2C[C@H](O)[C@@H](CO)O2)c(=O)[nH]c1=O | MMUDR-resistant | RK-13 | 1176 µM
O=C(NCc1ccc(Cl)cc1)c1c[nH]c2c(F)cccc2c1=O | Patton | - | 40 µM
Nc1nc2c(ncn2COCCO)c(=O)[nH]1 | C42 | SIRC | 0.05 µM
Cn1cc(C(=O)NCc2ccc(Cl)cc2)c(=O)c2cc(CN3CCOCC3)ccc21 | HL-3 | HFF | 2.9 µM
Nc1nc(=O)n([C@@H]2O[C@H](CO)[C@@H](O)[C@@H]2F)cc1I | V3 | HELF | 0.12 µM
O=C(NCc1ccc(Cl)cc1)c1cn2c3c(cc(CN4CCOCC4)cc3c1=O)OC(c1cccnc1)C2 | HL-34 | HFF | 7.5 µM
O=c1[nH]c(=O)n([C@H]2C[C@H](O)[C@@H](CO)O2)cc1/C=C/Br | 77 | VERO | 0.065 µM
Cn1cc(C(=O)NCc2ccc(Cl)cc2)c(=O)c2cc(CN3CCOCC3)ccc21 | F | VERO | 2.3 µM
Nc1nc2c(ncn2CC[C@@H](O)CO)c(=O)[nH]1 | KJ502 | VERO | 7 µM
O=c1[nH]c(=O)n([C@@H]2O[C@H](CO)[C@@H](O)[C@@H]2O)cc1/C=C/Br | 77 | HELF | 0.045 µM

3 of the rows above, restated:

smiles,strain or isolate,cell line,value
Cn1cc(C(=O)NCc2ccc(Cl)cc2)c(=O)c2cc(CN3CCOCC3)ccc21,F,VERO,2.3 µM
O=C(NCc1ccc(Cl)cc1)c1c[nH]c2c(F)cccc2c1=O,Patton,-,40 µM
Cn1cc(C(=O)NCc2ccc(Cl)cc2)c(=O)c2cc(CN3CCOCC3)ccc21,HL-3,HFF,2.9 µM